Measurements as given in the supplement of paper PMC5770543.

Assays:
[1] = system: Plasmodium falciparum 3D7; assay: EC50 growth inhibition (60 h, SYBR Green); details: stage: ring-stage start
[2] = system: Toxoplasma gondii RH tachyzoites; assay: % growth inhibition vs DMSO (48 h luciferase); higher = more inhibition; details: 10 µM
[3] = system: Plasmodium falciparum 3D7; assay: % inhibition of schizont-to-ring transition vs DMSO; higher = more inhibition
Method in brief: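 Tightly synchronised P. falciparum schizonts (about 40–42 hours post-invasion, 1% parasitemia, 2.5% hematocrit, AlbuMAX-supplemented RPMI) were exposed to compound at 1, 3 or 10 µM, with vehicle and positive controls. Cells were glutaraldehyde-fixed, Triton-permeabilised, stained with Hoechst 33342 and counted by flow cytometry (at least 100,000 events). Schizont-to-ring transition inhibition is new ring formation relative to vehicle controls, averaged over three experiments.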

[4] = molecular target: Toxoplasma gondii RH tachyzoites; assay: EC50 growth inhibition (48 h luciferase)
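Wherever % growth inhibition vs DMSO (48 h luciferase) is given: tested in triplicate wells of 96-well plates on confluent HFF monolayers, with 1% DMSO wells as negative control in four replicates.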

SMILES	EC50 growth inhibition [1]	% growth inhibition [2]	% inhibition of schizont-to-ring transition ([3]; 1 µM)	% inhibition of schizont-to-ring transition ([3]; 3 µM)	% inhibition of schizont-to-ring transition ([3]; 10 µM)	EC50 growth inhibition [4]
CCC1(C)CC(CCNCc2ccccc2O)(c2ccc(C)cc2)CCO1 (stereo unspecified)	357 nM	76.3 ± 2.5%	40.2%	65.1%	71.6%	–
c1ccc2c(NCCCCCCNc3c4c(nc5ccccc35)CCCC4)c3c(nc2c1)CCCC3	152 nM	99.68 ± 0.17%	45.3%	73.6%	81.1%	2080 nM

± gives the standard deviation.
